These results are taken from the supplement of paper PMC9931576.

Human monoclonal antibodies against the spike receptor-binding domain (heavy:light variable regions). IC50 against pseudoviruses bearing the spike of naturally observed variants; lower = stronger; >10 µg/ml means not reached at the top dose. No active / inactive call. The stated detection limit is 0.0005 µg/ml; values near or below 0.001 µg/ml lie at the floor of the assay.

First the molecules themselves.
B1: BD-822 (protein)
chain 1: QVTLRESGPALVKPTQTLTLTCSFSGFSLTTRGMCVSWIRQSPGKALEWLARIDWDDDKHYSTSLNTRLTISKDASENQVVLQLTNMDPVDTATYYCARETVAGPIIDYWGQGTLVTVSS
chain 2: DIQMTQSPSSLSASVGDRVTITCRASHNINKYLNWYQQKPGKAPKLLIYITSTLQSGVPSRFSGSGSGTDFTLTISSLQPEDFATYYCQQSYSTPRTFGQGTKVEIK
B2: BD55-199 (protein)
chain 1: QITLTESGPALVKPTQTLTLTCSFSGFSLRSTGVGVGWIRQPPGKALEWLALIYWDDDKRYRPSLKSRLTITKDTSKNQVVLTMTNMDPVDTATYYCAHTRARSYYDVLTGYETYYHYYMDVWGKGTTVAVSS
chain 2: QSVLTQPPSVSAAPGQRVTISCSGNSSNIGNNYVSWYQQHPGTAPKLLIYDNDKRPSGIPDRFSGSKSGTSATLGITGLQATDEADYYCATWDDSLRGVFGGGTRLTVL
B3: BD-836 (protein)
chain 1: QVQLVQSGPEVKKPGTSVRVSCKASGFTFSTSAVQWVRQARGQRLEWIGWIAVGSGKTDYLQKFQERVTMTRDESTNTAYMQLSSLRSEDTAVYYCAAPHCSGGTCYDGFDIWGQGTLVTVSS
chain 2: EIVLTQSPGTLSLSPGERATLSCRASQSVRSGYFAWYQQRPGRAPRLLIYGASSRATAIPDRFSGSGSGTDFTLTINRLEPEDFAVYYCQQYGTSPWTFGQGTKVEIK
B4: BD-843 (protein)
chain 1: EVQLVESGGGLVQPGGSLRLSCAASGFTFSSYDMHWVRQASGKGLEWVSAIGTSGDTWYSDSVKGRFTISRENAKNSLSLQMNSLRAGDTAVYYCARVDYDFLTGRSYWFFDLWGRGTLVTVSS
chain 2: DIQVTQSPSSLSASVGDRVTITCRASQTITRYLNWYQQKPGKAPKLLIYAASSLQSGVPSRFSGSGSGTDFTLTISSLQPEDFATYYCQQSYSAPPFTFGPGTKVDIK
B5: BD55-1811 (protein)
chain 1: QKQLVQSGPEVKKPGTSVKVSCKTSGFTFGTSAVQWVRQARGQRLEWIGWIVVGSGNTDYAQNFQDRVTITKDMSTSTAYLEVNSLRSEDTAVYYCAAEGGYCRGGSCYTFSYWGQGTLVTVSS
chain 2: DIVLTQTPLSLAITPGQPASISCKSSQSLQHSDGKTYLYWYLQKPGQPPQLLISEVSNRFSGVPDRFSGSGSGTDFTLKISRVEADDVGVYFCMQTFRLPRTFGQGTKVEIK
B6: BD-613 (protein)
chain 1: EVQLVESGGGLVQPGGSLRLSCAASGLTVSSNYMSWVRQAPGKGLNWVSVIYSGGSTYYADSVKGRFTISRDNSKNTLYLEMNSLKPEDTAVYYCARLPYGMDVWGQGTTVTVSS
chain 2: DIQMTQSPSSLSASVGDRVTITCQASQDIRNYLNWYQQKPGKAPKLLIHDASNLETGVPSRFIGSGSGTDFTFTISSLQPEDIATYYCQQYDNLPITFGQGTRLEIK
B7: BD55-1868 (protein)
chain 1: EVQLVESGGGLVQPGGSLRLSCTASGFSFSNYHMNWVRQTPGKGLEWVSYISSSSGPIYLADSVKGRFTISRDNARNSLYLQMNSLRAEDTAVYYCATLKWLRGSFDYWGQGTLVTVSS
chain 2: NFMLTQPHSVSESPGKTVTISCTGSSGSIASNYVQWYQQRPGSAPTTVIYEDYQRPSGVPDRFSGSIDSSSNSASLTISGLKTEDEADYYCQSYDSSNVNWVFGGGTKLTVL
B8: BD-824 (protein)
chain 1: QVQLVQSGAEVKKPGASVKVSCRASGYTFTTYSMHWVRQAPGQRLEWMGWINAGNGNTKYSQKFQGRVTITTDTSASTAYMELSRLRSEDTAVFYCARGGNNWFDYFDYWGQGTLVTVSS
chain 2: DIQMTQSPSTLSASVGDRVTITCRASQSINSWLAWYQQIRGKAPKLLIYDASSLESGVPSRFSGSGSGTEFTLTISSLQPDDFATYYCQQYKGYPWTFGQGTKVEIK
B9: BD-828 (protein)
chain 1: EVQLVESGGGLVQPGGSLRLSCSASGFIFSSYDMHWVRQAPGKGLEYVSGISSDGDITYYADSVKGRFTMSRDNSKKMLYLQMSSLRADDTAVYYCVKDSPSMIVVVLDYWGQGTLVTVSS
chain 2: DIQMTQSPSSLSASVGDRVTITCQTSQIIAGYLNWFQQKPGKAPKLLIYAASNLQTGVPSRFSGNGSGTDFTLTISSLQPEDFATYYCQQSYSTPPTFGQGTNVEIK
B10: BD-827 (protein)
chain 1: QVRLQESGPGLVKPSGTLSLTCAVSGGSVSSTNWWSWVRQPPGKGLEWIGDIHHGGNTNYSPSLKSRVTISVDRSKNQFSLELNSVTAADTAIYYCAREGLVARGNYFDYWGPGIMVTVS
chain 2: SYVLTQPPSVSVAPGKTATITCGGTNGGSKTVHWYQQKPGQAPVLVIYFDSDRPSGIPERFSGSNSGNTATLTISWVEAGDEADYYCQVWDSFSAHPDFGGGTKLTVL
B11: BD-818 (protein)
chain 1: QVQLVQSGAELRKPGSSVKLSCKASGGTFGSHTINWVRQAPGQGLEWMGRIMPILGVANYAQKFEGRVTITADKSTSTAFMELSSLRSDDTGVYYCARFDLHAWYFDLWGRGTLITVSS
chain 2: QSVLTQPPSVSGAPGQRVTISCTGSNSNIGAGYDVHWYQQLPGTAPKLLIYGNSNRPSGVPDRFSGSKSDTSASLAITGLQAEDEADYYCQSYDSDLSDIVFGGGTKLTVL
B12: BD-817 (protein)
chain 1: QVQLVQSGTEVKRPGSSVKVSCKISGGTFSNYAITWVRQAPGQGLEWMGRIIPIFGMADYAQKFQGRVTITADKSTSTAYMELSRLTSEDTAIYYCNFDINTYRELQNWGQGTLVTVSS
chain 2: DIQMTQSPSSLSASIGDRVTITCQASQDIKKSLHWFQQKPGKAPRLLIYDASNLETGVPSRFSGSGSGTDFTFTISSLQPEDFATYFCQQYDNLPLTFGGGTKVDFK
B13: BD-605 (protein)
chain 1: EVQLVESGGGLIQPGGSLRLSCAASGFTVSSNYMSWVRQAPGKGLEWVSVIYSGGSTFYADSVKGRFTISRDNSKNTLYLQMNSLRAEDTAVYYCARDLGAYGMDVWGQGTTVTVSS
chain 2: DIQLTQSPSFLSASVGDRVTITCRASQGISSYLAWYQQKPGKAPKLLIYAASTLQSGVPSRFSGSGSGTEFTLTISSLQPEDFATYYCQQLNSDLYTFGQGTKLEIK

In one assay the target is SARS-CoV-2 Omicron BA.1 spike pseudovirus. Description: pseudovirus neutralization IC50; higher = weaker neutralization. As to the method:
(§1)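 Single-round VSV luciferase pseudovirus mixed with antibody dilutions for 1 h and put on Huh-7 cells for about a day; IC50 from the dose curve.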
For B1, the “pseudovirus neutralization IC50” value was more than 10 µg/mL.
The same measure, in the same setting: under B2 stands more than 10 µg/mL; under B3, 0.0383 µg/mL.
Same read-out and setting: under B4 stands more than 10 µg/mL.
For B5, the “pseudovirus neutralization IC50” value is more than 10 µg/mL.
Consider B6, for which the “pseudovirus neutralization IC50” value turned out to be 0.0311 µg/mL.
On the same count and under the same terms, under B7 stands more than 10 µg/mL; under B8, more than 10 µg/mL.
As for B9, the “pseudovirus neutralization IC50” value was more than 10 µg/mL.
Same read-out and setting: next, B10: 0.0289 µg/mL; B11: 0.0201 µg/mL.
On the same count and under the same terms, under B12 stands more than 10 µg/mL.
For B13, the “pseudovirus neutralization IC50” value was more than 10 µg/mL.

The target in another assay is SARS-CoV-2 Omicron BA.2 spike pseudovirus. Described as above. As to the method: as §1
As for B1, the “pseudovirus neutralization IC50” value is more than 10 µg/mL.
As for B2, the “pseudovirus neutralization IC50” value was more than 10 µg/mL.
Consider B3, for which the “pseudovirus neutralization IC50” value was found to be 0.0729 µg/mL.
Same read-out and setting: next, B4: more than 10 µg/mL.
On the same count and under the same terms, under B5 stands more than 10 µg/mL; under B6, 0.0611 µg/mL.
Same read-out and setting: under B7 stands more than 10 µg/mL; under B8, 0.0343 µg/mL.
In the case of B9, the “pseudovirus neutralization IC50” value was more than 10 µg/mL.
With B10, the “pseudovirus neutralization IC50” value stood at 0.0169 µg/mL.
Still for that read-out and setting: next, B11: 0.025 µg/mL; B12: more than 10 µg/mL.
On the same count and under the same terms, next, B13: more than 10 µg/mL.

Another assay deals with SARS-CoV-2 Omicron BA.2.75 spike pseudovirus. The description is as above. The method, then: as §1
In the case of B1, the “pseudovirus neutralization IC50” value is more than 10 µg/mL.
Same read-out and setting: next, B2: more than 10 µg/mL.
In the case of B3, the “pseudovirus neutralization IC50” value was 0.00143 µg/mL.
The same measure, in the same setting: next, B4: more than 10 µg/mL; B5: more than 10 µg/mL; B6: more than 10 µg/mL.
Regarding B7, the “pseudovirus neutralization IC50” value is more than 10 µg/mL.
Still for that read-out and setting: next, B8: more than 10 µg/mL; B9: more than 10 µg/mL.
Still for that read-out and setting: under B10 stands 0.032 µg/mL.
Still for that read-out and setting: under B11 stands 0.0253 µg/mL; under B12, more than 10 µg/mL; under B13, more than 10 µg/mL.

The target of a further assay is SARS-CoV-2 Omicron BA.5 spike pseudovirus. Described as above. As to the method: as §1
Turning to B1, the “pseudovirus neutralization IC50” value was more than 10 µg/mL.
The same measure, in the same setting: under B2 stands more than 10 µg/mL; under B3, 5.13 µg/mL; under B4, more than 10 µg/mL.
The same measure, in the same setting: next, B5: more than 10 µg/mL.
On the same count and under the same terms, under B6 stands 0.819 µg/mL; under B7, more than 10 µg/mL; under B8, 0.0438 µg/mL.
As for B9, the “pseudovirus neutralization IC50” value was more than 10 µg/mL.
On the same count and under the same terms, next, B10: 0.0146 µg/mL; B11: 1.07 µg/mL.
Same read-out and setting: next, B12: more than 10 µg/mL; B13: more than 10 µg/mL.

The target of a further assay is SARS-CoV-2 Omicron BQ.1.1 spike pseudovirus. The assay is described as above. The method, then:
as §1
Take B1: the “pseudovirus neutralization IC50” value was more than 10 µg/mL.
On the same count and under the same terms, under B2 stands more than 10 µg/mL; under B3, more than 10 µg/mL; under B4, more than 10 µg/mL.
For the molecule B5, the “pseudovirus neutralization IC50” value is more than 10 µg/mL.
B6: the “pseudovirus neutralization IC50” value was more than 10 µg/mL.
Still for that read-out and setting: under B7 stands more than 10 µg/mL; under B8, more than 10 µg/mL; under B9, more than 10 µg/mL.
Same read-out and setting: next, B10: 8.16 µg/mL; B11: more than 10 µg/mL; B12: more than 10 µg/mL.
Same read-out and setting: next, B13: more than 10 µg/mL.

The target in another assay is SARS-CoV-2 Omicron XBB spike pseudovirus. The assay is described as above. As to the method:
as §1
In the case of B1, the “pseudovirus neutralization IC50” value is more than 10 µg/mL.
Same read-out and setting: under B2 stands more than 10 µg/mL; under B3, more than 10 µg/mL; under B4, more than 10 µg/mL.
Same read-out and setting: under B5 stands more than 10 µg/mL.
Same read-out and setting: under B6 stands more than 10 µg/mL; under B7, more than 10 µg/mL; under B8, more than 10 µg/mL.
Consider B9, for which the “pseudovirus neutralization IC50” value was more than 10 µg/mL.
Still for that read-out and setting: next, B10: more than 10 µg/mL.
The same measure, in the same setting: next, B11: more than 10 µg/mL.
Take B12: the “pseudovirus neutralization IC50” value is more than 10 µg/mL.
In the case of B13, the “pseudovirus neutralization IC50” value was more than 10 µg/mL.

The next assay concerns the target SARS-CoV-2 early D614G spike pseudovirus. The description is as above. As to the method: as §1
For the molecule B1, the “pseudovirus neutralization IC50” value is 0.003 µg/mL.
Still for that read-out and setting: under B2 stands more than 10 µg/mL; under B3, 0.001 µg/mL.
The same measure, in the same setting: next, B4: 3.84 µg/mL; B5: more than 10 µg/mL.
Consider B6, for which the “pseudovirus neutralization IC50” value is 0.0348 µg/mL.
With B7, the “pseudovirus neutralization IC50” value turned out to be 0.34 µg/mL.
With B8, the “pseudovirus neutralization IC50” value is 0.029 µg/mL.
Still for that read-out and setting: under B9 stands more than 10 µg/mL.
The same measure, in the same setting: under B10 stands 0.012 µg/mL; under B11, 0.022 µg/mL; under B12, 1.55 µg/mL.
Still for that read-out and setting: next, B13: 0.0935 µg/mL.
